No dose or concentration is given here for some results.

These results are taken from patent US20020115066A1, “Viral therapeutics” (priority 1998, published 2002).

The nature of this data set: Stability and cleavage of core protein variants (Western blot with JM122). The note with it: 16 hours after electroporation. It counts as cell-based, hamster.

B1: pSFV.1-124,145-152: core variant truncated at residue 152 and lacking amino acids 125 to 144 (protein)
chain: GACECPGRSRRPCTMSTNPKPQRKTKRNTNRRPQDVKFPGGGQIVGGVYLLPRRGPRLGVRATRKTSERSQPRGRRQPIPKARRPKGRNWAQPGYPWPLYGNEGCGWAGWLLSPSGSRPSWGPNVDLMGYIP
On to B1, for which, for the setting “compared with pSFV.1-195, pSFV.1-153 and pSFV.Δ125-144”, the “level of reduction in amount of protein” value is on record as “approximately 5 fold”.

B2: pSFV.Δ125-144: construct expressing a core variant in which residues 125 to 144 had been deleted (protein)
chain: GACECPGRSRRPCTMSTNPKPQRKTKRNTNRRPQDVKFPGGGQIVGGVYLLPRRGPRLGVRATRKTSERSQPRGRRQPIPKARRPKGRNWAQPGYPWPLYGNEGCGWAGWLLSPSGSRPSWGPNVDLMGYIPLVGAPLRGAARALAHGVRVLEDGVNYATGNLPGCSFSIFLLAL
As for B2, the “abundance of uncleaved product relative to cleaved material at the internal processing site” value (relative band intensities) is 4-5 fold.
